Pooled drug test results. Numbers come from NIAID ChemDB, via PubChem.

Shared fields: whole-cell or culture tests

ECn: concentration that inhibits the pathogen or its effect by n%.

smiles | endpoint | cell line | strain or isolate | read by | agent | dose | value
Oc1ccccc1N=Cc1cccc(O)c1O | MIC99 | - | ATCC 28957 | - | Cryptococcus neoformans | - | 4 µg/mL
Cc1cc(O)c2c(c1)C(=O)c1c(cnn1C)C2=O | inhibition | - | - | - | Cryptosporidium parvum | 100 µM | 42%
CN[C@H]1CC[C@@H](c2ccc(Cl)c(Cl)c2)c2ccccc21 | MFC | - | Bt50 | broth dilution | Cryptococcus neoformans | - | 10 µg/mL
Cn1ncc2c1C(=O)c1cccc(Br)c1C2=O | inhibition | - | - | - | Cryptosporidium parvum | 100 µM | 99%
NCCCC[C@H](NC(=O)[C@H](CCCN=C(N)N)NC(=O)[C@H](CCCN=C(N)N)NC(=O)[C@H](CCCCN)NC(=O)[C@H](CCCCN)NC(=O)[C@@H](N)CCCCN)C(=O)N[C@@H](CCCN=C(N)N)C(=O)O | inhibition | - | ATCC 32264 | - | Cryptococcus neoformans | 12.5 µM | 0%
CC[C@@H](C(=O)[C@@H](C)[C@@H](O)[C@H](C)CCc1ccc(C)c(O)c1C(=O)O)[C@H]1O[C@](CC)([C@H]2CC[C@](O)(CC)[C@H](C)O2)C[C@@H]1C | inhibition | MDCK | IOWA | luminescence | Cryptosporidium parvum | 0.2 µg/mL | 39.6%
CCOC(=O)c1c(C)nc(OCCCNc2ccnc3cc(Cl)ccc23)nc1-c1ccccc1 | MIC99 | - | ATCC 62066 | - | Cryptococcus neoformans | - | 8 µg/mL
Cn1nc(Cc2ccc(Cl)cc2)c2ccccc2c1=O | MIC | - | Clinical isolate (IM 000319) | broth dilution | Cryptococcus neoformans | - | 125 µg/mL
C[C@@H](c1ncncc1F)[C@](O)(Cn1cncn1)c1ccc(F)cc1F | MIC | - | CBS 11752 | broth dilution | Cryptococcus gattii | - | 0.125 µg/mL
NC[C@@H]1O[C@H](O[C@H]2[C@@H](O)[C@H](O[C@@H]3[C@@H](O)[C@H](N)C[C@H](N)[C@H]3O[C@H]3O[C@H](CO)[C@@H](O)[C@H](O)[C@H]3N)O[C@@H]2CO)[C@H](N)[C@@H](O)[C@@H]1O | EC50 | MDBK | - | cell count | Cryptosporidium parvum | - | <1000 µg/mL
Oc1ccc(O)c(C=Nc2ccccc2O)c1 | MIC99 | - | L24/01 | - | Cryptococcus gattii | - | 8 µg/mL
Cn1ncc2c1C(=O)c1cccc(O)c1C2=O | inhibition | - | - | - | Cryptosporidium parvum | 50 µM | 100%
C[C@@H](c1ncncc1F)[C@](O)(Cn1cncn1)c1ccc(F)cc1F | MIC50 | - | VG IIc | broth dilution | Cryptococcus gattii | - | 0.25 µg/mL
Cc1nc(NCCCCNc2ccnc3cc(Cl)ccc23)nc(-c2ccccc2)c1C(=O)OC(C)C | MIC99 | - | ATCC 62066 | - | Cryptococcus neoformans | - | 8 µg/mL
COc1c2c(c(O)c3ccccc13)C(=O)c1cnn(C)c1C2=O | inhibition | - | - | - | Cryptosporidium parvum | 25 µM | 86%

Inhibition is in % at the dose shown (toxicity tests: loss of growth or viability). Rows are shuffled and stem from different studies. An empty or dashed field is not shown. MIC50, MIC90 and the like: level of inhibition, or share of isolates inhibited.